Compound potency records, mixed from different reports. Data source: NIAID ChemDB in PubChem.

Common to all: tests on isolated targets; species: Hepatitis C virus; protein: Nonstructural protein 3 NTPase/helicase; measure: IC50

Neighbouring rows are from separate reports.

{"smiles": "O=C(CCCCC(=O)Nc1ccc(-c2nc3ncncc3[nH]2)cc1)Nc1ccc(-c2nc3ccccc3[nH]2)cc1", "result": "0.7 µM"}
{"smiles": "O=C(CCC(=O)Nc1ccc(-c2nc3ccccc3[nH]2)cc1)Nc1ccc(-c2nc3ccccc3[nH]2)cc1", "result": ">25 µg/mL"}
{"smiles": "OC[C@H]1O[C@@H](n2cnc3cc(Br)c(Br)cc32)[C@H](O)[C@@H]1O", "result": ">500 µM"}
{"smiles": "O=C(c1ccc(C(=O)N2CCC(c3nc4ccccc4[nH]3)CC2)cc1)N1CCC(c2nc3ccccc3[nH]2)CC1", "result": "10 µM"}
{"smiles": "NC(=O)c1ncn([C@@H]2O[C@H](COP(=O)(O)OP(=O)(O)O)[C@@H](O)[C@H]2O)n1", "result": "250 µM"}
{"smiles": "O=C(NCCCCNC(=O)Nc1ccc(-c2nc3ccccc3[nH]2)cc1)Nc1ccc(-c2nc3ccccc3[nH]2)cc1", "result": ">25 µg/mL"}
{"smiles": "c1cc(CN2CCC(C3=N[C@@H]4CCCC[C@H]4N3)CC2)ccc1CN1CCC(C2=N[C@@H]3CCCC[C@H]3C2)CC1", "result": "7 µM"}
{"smiles": "O=C(CCCCCCCCC(=O)Nc1ccc(-c2nc3ccccc3[nH]2)cc1)Nc1ccc(-c2nc3ccccc3[nH]2)cc1", "result": ">25 µg/mL"}
{"smiles": "NC(=O)c1ncn([C@@H]2O[C@H](COC(=O)c3ccc(S(=O)(=O)F)cc3)[C@@H](O)[C@H]2O)n1", "result": ">1000 µM"}
{"smiles": "COc1cccc2sc(N)nc12", "result": ">25 µg/mL"}
{"smiles": "OC[C@H]1O[C@@H](n2cnc3cc(Cl)c(Cl)cc32)[C@H](O)[C@@H]1O", "result": ">500 µM"}
{"smiles": "COc1cccc2c1C(=O)c1c(O)c3c(c(O)c1C2=O)C[C@@](O)(C(C)=O)C[C@@H]3O[C@H]1C[C@H](N)[C@H](O)[C@H](C)O1", "result": "57 µM"}
{"smiles": "O=C(CCCCC(=O)Nc1nc2ccccc2[nH]1)Nc1nc2ccccc2[nH]1", "result": ">25 µg/mL"}
{"smiles": "COC(=O)C1c2cc3c(c(O)c2C(O)CC1(C)O)C(=O)c1c(O)cc2c(c1C3=O)OC1OC2(C)C(O)C(N(C)C)C1O", "result": "0.1 µM"}
{"smiles": "Nc1nncs1", "result": ">25 µg/mL"}
{"smiles": "CN1CCN(CCCN2c3ccccc3Sc3ccc(C(F)(F)F)cc32)CC1", "result": "105 µM"}
{"smiles": "CO[C@@H]1[C@@H](OC)[C@@H](OC)C(O[C@H]2C[C@](C)(O)C(C(=O)CO)c3c(O)c4c(c(O)c32)C(=O)c2c(O)cc3c(c2C4=O)OC2OC3(C)C(O)C(N(C)C)C2O)O[C@H]1C", "result": "0.1 µM"}
{"smiles": "Nc1ncnc2c1ncn2[C@@H]1O[C@H](COC(=O)c2ccc(S(=O)(=O)F)cc2)[C@@H](O)[C@H]1O", "result": ">1000 µM"}

A second listing of 2 rows from above:

smiles | result
O=C(CCC(=O)Nc1ccc(-c2nc3ccccc3[nH]2)cc1)Nc1ccc(-c2nc3ccccc3[nH]2)cc1 | >25 µg/mL
NC(=O)c1ncn([C@@H]2O[C@H](COP(=O)(O)OP(=O)(O)O)[C@@H](O)[C@H]2O)n1 | 250 µM

ICn: concentration for n% inhibition.